Data set [1] concerns the target MBP-IE86 C-terminal fragment (IE86C) (human cytomegalovirus) (UniProt P19893). In words: size-exclusion chromatography. In general terms: Size exclusion chromatography separates by hydrodynamic size, large species first.
Data set [2] has the same target. In words: EMSA. Conditions: 0-20 uM protein.

The chains behind the UniProt entries cited, without tags or fusion partners. Where a name states a change or a piece, a line headed by the entry shows the natural chain unless it says otherwise.
UniProt P19893: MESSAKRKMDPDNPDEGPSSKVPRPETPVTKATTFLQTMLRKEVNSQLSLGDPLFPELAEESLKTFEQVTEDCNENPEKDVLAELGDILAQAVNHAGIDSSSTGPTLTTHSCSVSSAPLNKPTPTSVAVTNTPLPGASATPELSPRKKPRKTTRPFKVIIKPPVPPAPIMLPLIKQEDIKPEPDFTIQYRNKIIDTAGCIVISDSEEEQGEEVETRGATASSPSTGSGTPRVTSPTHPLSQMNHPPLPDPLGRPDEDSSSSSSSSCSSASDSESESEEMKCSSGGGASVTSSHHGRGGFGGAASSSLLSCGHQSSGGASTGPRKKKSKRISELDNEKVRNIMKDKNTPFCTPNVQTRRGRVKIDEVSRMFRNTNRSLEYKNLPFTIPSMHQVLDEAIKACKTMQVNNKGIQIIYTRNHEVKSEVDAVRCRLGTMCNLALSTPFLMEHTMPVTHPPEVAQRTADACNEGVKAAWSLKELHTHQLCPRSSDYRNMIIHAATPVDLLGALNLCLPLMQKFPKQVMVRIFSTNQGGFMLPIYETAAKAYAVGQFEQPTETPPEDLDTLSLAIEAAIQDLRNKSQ

The exact form of at least one protein or probe is not confirmed. For some of these results: Weaker means in comparison with the reference protein, sequence or condition of that experiment. For some of these results: At least one verdict rests on a figure or table, not on a statement of the authors.

Ten sequences from doi:10.1101/464495 can be followed below.

For the sequence “ACAGATCGTTTAGTGAACCGTACACG (double strand) [26bp DNA]”, the binding result in data set [1] (less efficient than 28bp) was “binds”.

For the sequence “AGACAGATCGTTTAGTGAACCGTACACGAT (double strand) [30bp DNA]”, the binding result in data set [1] (less efficient than 28bp) was “binds”.

“AGATCGTTTAGTGAACCGTAC (double strand) [21bp DNA]”: the binding result in data set [1] (less efficient than 28bp) was “binds”. “ATAGACAGATCGTTTAGTGAACCGTACACGATTA (double strand) [34bp DNA]”: the binding result in data set [1] is reported as “binds more weakly”. For “CAGATCGTTTAGTGAACCGTACAC (double strand) [24bp DNA]”, in data set [1] (less efficient than 28bp), the binding result is given as “binds”.

Consider “CGTTTAGTGAACCGCGCGCGATAGTACATAATCA (double strand) [FDC (1x)]”, for which the binding result in data set [1] is on record as “binds”. For the sequence “CGTTTAGTGAACCGCGCGCGCGTTTAGTGAACCG (double strand) [FDC (2x) concatemer]”, the binding result in data set [1] (enhanced over 1x) is on record as “binds”. With “GGTGGGAGGTCTATATAAGCAGAGCTCGTTTAGTGAACCGTCAGATCGCCTGGAGAC (double strand) [crs EMSA probe]”, in data set [2], the binding result is recorded as “binds”. Regarding “TAATACGACTCACTATAGGGCGAATTGGAGCTCGTTTAGTGAACCGTCAGATCTCTAGAAGCTT (double strand) [64bp DNA]”, the binding result in data set [1] is “binds more weakly”. As for “TCGTTTAGTGAACC (double strand) [14bp DNA]”, in data set [1], the binding result is reported as “binds more weakly”.
